# BindingDB's records for 26818694 (Brookhaven National Laboratory, 2016)
# The chains behind the UniProt entries cited, without tags or fusion partners. Residues count along the entry.
# UniProt B1JQH1, 1-175: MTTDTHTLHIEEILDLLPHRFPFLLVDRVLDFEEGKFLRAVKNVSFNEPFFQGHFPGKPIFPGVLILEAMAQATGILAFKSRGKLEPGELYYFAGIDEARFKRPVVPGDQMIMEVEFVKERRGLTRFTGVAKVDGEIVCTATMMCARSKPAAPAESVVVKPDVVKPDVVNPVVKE
# Biological target: 3-hydroxyacyl-[acyl-carrier-protein] dehydratase FabZ [1-175] (Yersinia pestis, UniProt B1JQH1)
# Settings: pH 7
row,Compound,IC50
1,COc1c(O)cc2oc3cc(O)c(CC=C(C)C)c(O)c3c(=O)c2c1CC=C(C)C [Mangostin],6.1 µM
2,"Cc1cc(O)c2c(c1)C(=O)c1cc(O)cc(O)c1C2=O [1,3,8-trihydroxy-6-methylanthra-9,10-quinone]",29.7 µM
3,"O=C1C=CC(=O)c2c(O)cccc21 [5-hydroxy-1,4-dihydronaphthalene-1,4-dione]",5.3 µM
4,"COc1cc(C)c2c(c1C=O)Oc1c(c(C)c(O)c3c1C(O)OC3=O)OC2=O (centres undefined) [1,4-Dihydroxy-10-methoxy-5,8-dimethyl-3,7-dioxo-1,3-dihydro-7H-benzo[e]furo[3',4':3,4]benzo[b][1,4]dioxepine-11-carbaldehyde]",13 µM
